A mixed list of measured activities; the numbers were collected in NIAID ChemDB.

All rows: enzyme or target tests; species: Toxoplasma gondii

Percent inhibition refers to the dose given; in toxicity tests it is the harm to the cells.

SMILES | strain or isolate | target | measure | tested at | result
CN(Cc1cnc2nc(N)nc(N)c2n1)c1ccc(C(=O)N[C@@H](CCC(=O)O)C(=O)O)c2ccccc12 | RH | DHFR | IC50 | - | 0.00228 µM
CC(C)Cn1c(=O)n(C)c(=O)c2[nH]cnc21 | RH | Phosphoribosyltransferase | IC50 | - | >900 µM
O=c1cc(O)cc[nH]1 | RH | Uracil phosphoribosyltransferase | IC50 | - | >2000 µM
Cc1nc(N)[nH]c(=O)c1CCCNS(=O)(=O)c1ccc(N)cc1 | - | DHPS | IC50 | - | <270 µM
O=C(O)c1cnccn1 | RH | Uracil phosphoribosyltransferase | inhibition | 2000 µM | <5%
CN(Cc1cnc2nc(N)nc(N)c2n1)c1ccc(C(=O)NC(CCC(=O)NC(CCC(=O)O)C(=O)O)C(=O)O)cc1 | RH | DHFR | IC50 | - | 0.0027 µM
CCOc1ccc2sc(NS(=O)(=O)c3ccc(N)cc3)nc2c1 | - | DHPS | IC50 | - | 990 µM
O=c1ccnc[nH]1 | RH | Uracil phosphoribosyltransferase | inhibition | 2000 µM | <10%
Cc1cc(C(=O)O)cc(C)c1N(C)Cc1cnc2nc(N)nc(N)c2n1 | RH | DHFR | IC50 | - | 0.28 µM
Nc1ccc(S(=O)(=O)Nc2cccc3ncccc23)cc1 | - | DHPS | IC50 | - | 2400 µM
CC1(C)N=C(N)N=C(N)N1c1ccccc1Cl | RH | DHFR | IC50 | - | 84.6 µM
Nc1c[nH]c(=O)[nH]c1=O | RH | Uracil phosphoribosyltransferase | IC50 | - | >2000 µM
S=c1[nH]ncc2[nH]cnc12 | RH | Phosphoribosyltransferase | Ki | - | 14 µM
Nc1ccnc(=S)[nH]1 | RH | Uracil phosphoribosyltransferase | IC50 | - | >2000 µM
CN1CNc2[nH]c(=O)[nH]c(=O)c21 | RH | Phosphoribosyltransferase | Ki | - | 1900 µM
Nc1ccc(S(=O)(=O)Nc2cc(F)cc(F)c2)cc1 | - | DHPS | Ki | - | 8.7 µM
COc1cnccn1 | RH | Uracil phosphoribosyltransferase | inhibition | 2000 µM | <10%
O=c1[nH]ncc2[nH]cnc12 | RH | Phosphoribosyltransferase | Ki | - | 22 µM
CC1(C)N=C(N)N=C(N)N1c1cccc(OCCCOc2cccc([N+](=O)[O-])c2)c1 | RH | DHFR | IC50 | - | 0.033 µM
Cc1[nH]c(=O)[nH]c(=O)c1[N+](=O)[O-] | RH | Uracil phosphoribosyltransferase | IC50 | - | >2000 µM
S=c1[nH]c(=S)c2[nH]cnc2[nH]1 | RH | Phosphoribosyltransferase | Ki | - | 420 µM
CC1(C)N=C(N)N=C(N)N1c1ccc(Cl)cc1Cl | RH | DHFR | IC50 | - | 56 µM
CC(O)CN1CNc2c1c(=O)n(C)c(=O)n2C | RH | Phosphoribosyltransferase | Ki | - | 1900 µM
COC(=O)c1cc(=O)[nH]c(=O)[nH]1 | RH | Uracil phosphoribosyltransferase | inhibition | 2000 µM | <5%
Nc1ncnc2c1ncn2C1CCCCC1 | RH | Phosphoribosyltransferase | IC50 | - | >900 µM
CC1(C)N=C(N)N=C(N)N1c1cccc(C=C/C=C/c2cccc([N+](=O)[O-])c2)c1 | RH | DHFR | IC50 | - | 0.1 µM
Cc1cnccn1 | RH | Uracil phosphoribosyltransferase | inhibition | 2000 µM | <5%
O=c1[nH]c(=O)c2n[nH]nc2[nH]1 | RH | Phosphoribosyltransferase | inhibition | 900 µM | <10%

Repeating the first 2 entries:

SMILES	strain or isolate	target	measure	tested at	result
CN(Cc1cnc2nc(N)nc(N)c2n1)c1ccc(C(=O)N[C@@H](CCC(=O)O)C(=O)O)c2ccccc12	RH	DHFR	IC50	-	0.00228 µM
CC(C)Cn1c(=O)n(C)c(=O)c2[nH]cnc21	RH	Phosphoribosyltransferase	IC50	-	>900 µM

Conditions beyond the fields shown may differ between rows. Blank or dashed fields: not listed here. ICn: concentration for n% inhibition.